Reference: PubChem BioAssay AID1224833 (University of Georgia, 2016)

Purpose: 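Host factors restraining rotavirus as candidate antiviral genes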 (primary screen)
Cells: monkey MA104 kidney cells
Knock-down reagent: siRNA pool against human genes, 50 nM
Time to read-out: 48 h knock-down before infection; read 24 h after infection
Challenge: infection with rotavirus strain RV3 two days after transfection; infectious dose for this stage not given
Measurement: 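Rotavirus antigen per well by fluorescent immunoassay, normalised to non-targeting control wells on each plate and given as a standard z-score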
Direction: z-score vs non-targeting control: higher = more rotavirus replication than with non-targeting control
Hit rule: In these data the active calls have z-score vs non-targeting control at about -1 or lower, or at about 1 or higher
Calls: active = z-score beyond 1 either way; inactive = z-score within 1 of zero
This is a random part of about 12,000 reagents tested. About 5,600 of them (46%) were called active. 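Active calls cover z-scores past 1 in both directions, so they include lowered as well as raised rotavirus replication.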 A number with no mark means an inactive call. No sequences are given here.

Depletion of PRPF40B [SID329578155] resulted in: z-score vs non-targeting control 0.314.
Knock-down of SERTAD4 [SID329580019] gave: z-score vs non-targeting control -1.15 (active).
After knock-down of KLRF1 [SID329579033], the screen gave z-score vs non-targeting control -0.868.
CETN2 [SID329573141] gave z-score vs non-targeting control -1.22 (active).
Knock-down of PDE1B [SID329574786] came out at: z-score vs non-targeting control 0.876.
After knock-down of SEC24C [SID329576697], the record shows z-score vs non-targeting control -0.778.
REPS2 [SID329576468] scored z-score vs non-targeting control -1.75 (active).
Against OGFRL1 [SID329580922], the entry reads z-score vs non-targeting control 0.279.
Silencing of STARD3NL [SID329581483] resulted in: z-score vs non-targeting control -0.66.
EIF2B4 [SID329576341] gave z-score vs non-targeting control -1.56 (active).
WFDC2 [SID329577137] gave z-score vs non-targeting control -0.372.
BAG5 [SID329576642] showed z-score vs non-targeting control 0.82.
After knock-down of DDX51 [SID329583999], the screen gave z-score vs non-targeting control -0.986.
Silencing of TMEM64 [SID329583303] resulted in: z-score vs non-targeting control -1.1 (active).
Depletion of AP1G1 [SID329572718] gave: z-score vs non-targeting control -0.396.
For CAAP1 [SID329581058], the values are z-score vs non-targeting control 0.511.
After knock-down of KLHL22 [SID329581742], the screen gave z-score vs non-targeting control -0.89.
After knock-down of NOX4 [SID329578795], the record shows z-score vs non-targeting control -1.08 (active).
After knock-down of IFRD1 [SID329574112] the results were z-score vs non-targeting control -0.763.

Individual results from the entries so far.
STARD3NL [SID329581483], z-score vs non-targeting control = -0.66
For “z-score vs non-targeting control”, SERTAD4 [SID329580019] has -1.15 (active)
PDE1B [SID329574786], z-score vs non-targeting control = 0.876
